Measured values from several laboratories, pooled; numbers as filed in NIAID ChemDB.

Shared fields: host cell toxicity; cell line: C8166; measure: CC50

Blank or dashed fields: not listed here. CCn is the concentration with n% toxicity to the cells. Rows are shuffled and stem from different studies.

| smiles | read by | result |
|---|---|---|
| CCC(C)[C@H](NC(=O)[C@@H]1CCCN1[P@@](=O)(OC)[C@H](Cc1ccccc1)NC(=O)[C@H](CC(N)=O)NC(=O)OC(C)(C)C)C(=O)NCC(C)C |  | 30 µM |
| C=C1C(=O)O[C@@H](CCCCCCCCCCCCCC(C)=O)[C@H]1C(=O)O | MTT | >200 µM |
| CCC(C)C(=O)OC[C@@H]1[C@H](Cc2ccc(O)c(OC)c2)CO[C@H]1c1ccc(O)c(OC)c1 | MTT | 660 µM |
| COC(=O)C[C@@H](OC1=C(C)C(=O)C(C)(C)C1=O)c1ccccc1 | MTT | >200 µM |
| Cc1cc(-c2ccco2)n(-c2ccc3c(c2)nc(COc2ccc(C(=N)N)cc2)n3C)n1 | MTT | 54 µM |
| CC(C)(C)NC(=O)[C@@H]1C[C@@H]2CCCC[C@@H]2CN1C[C@H](O)CNC(=O)[C@@H]1N[C@@H]([C@H](NC(=O)Cc2ccccc2)C(=O)NCc2ccccc2)SC1(C)C |  | >100 µM |
| COc1ccc(C(=O)N2c3ccccc3NC(=O)CC2C)cc1 | MTT / absorbance | >400 µM |
| CCNC(=O)[C@@H](NC(=O)Cc1ccccc1)[C@@H]1N[C@@H](C(=O)NC[C@H](O)CN2C[C@H]3CCCC[C@H]3C[C@H]2C(=O)NC(C)(C)C)C(C)(C)S1 |  | >100 µM |
| COc1cc2oc(=O)c3c(O)ccc(O)c3c2c(OC)c1OC | MTT | >200 µM |
| CN(CCS(=O)(=O)O)C(=N)N | MTT | >200 µg/mL |
| CC1CC(=O)Nc2ccccc2N1C(=O)c1ccccc1F | MTT / absorbance | >400 µM |
| Cc1c(Cc2cccc3ccccc23)nc(Sc2cccs2)[nH]c1=O | MTT | 88.3 µM |
| C/C(=C\CC/C(C)=C/C(=O)O)C/C=C/[C@@]1(C)CCC(C(C)(C)O)O1 | MTT | >200 µM |
| CCc1cc(-c2ccc(C)o2)n(-c2ccc3c(c2)nc(-c2cc(C(=O)N(C)C)ccc2O)n3Cc2ccc(OC)c(O)c2)n1 | MTT | 16 µM |
| COc1cc([C@H]2O[C@@H](c3ccc(O)c(OC)c3)[C@@H](CO)[C@@H]2C)ccc1O | MTT | >200 µg/mL |
| CCCCCC(O)/C=C/C=C\CCCCCC[C@@]1(O)C[C@H](C(=O)OC)[C@H](C(C)=O)O1 | MTT | >200 µM |
| COC(C)(C)/C=C/C[C@](C)(O)C1[C@H](O)C[C@@]2(C)[C@@H]3CC=C4[C@@H](C[C@H](O)[C@@H](O)C4(C)C)[C@]3(C)C(=O)C[C@]12C | MTT | 559.9 µM |
| CCC(C)[C@H](NC(=O)[C@@H]1CCCN1[P@](=O)(OC)[C@H](Cc1ccccc1)NC(=O)[C@H](CC(N)=O)NC(=O)OC(C)(C)C)C(=O)NCC(C)C |  | >100 µM |
| CC1CC(=O)Nc2ccccc2N1C(=O)c1ccc(Br)cc1 | MTT / absorbance | >400 µM |
| CC(=O)OC(C)(C)CCC(=O)[C@](C)(O)[C@H]1[C@H](O)C[C@@]2(C)[C@@H]3CC=C4[C@@H](C[C@H](O)[C@@H](O)C4(C)C)[C@]3(C)C(=O)C[C@]12C | MTT | 321.8 µM |
| C=C(C)[C@@]12OC3(c4ccccc4)O[C@@H]1[C@@H]1[C@H](O)[C@@](C)(O)[C@@H](OC(C)=O)[C@@]4(O)[C@@H](C[C@H](C)[C@@H]4O)[C@@]1(O3)[C@H](C)[C@@H]2OC(=O)c1ccccc1 | MTT | 9.76 µg/mL |
| COc1cc([C@H]2O[C@@H](c3ccc(O)c(OC)c3)[C@H](CO)[C@H]2C)ccc1O | MTT | 118 µg/mL |
| Cc1cccc(C(=O)N2c3ccccc3NC(=O)CC2C)c1 | MTT / absorbance | >400 µM |
| Cc1cn([C@H]2C=C[C@@H](COC(=O)CC3(C)C[C@](C)(O)CO3)O2)c(=O)[nH]c1=O |  | >500 µM |
| Nc1nc(=O)n([C@@H]2CC[C@H](CO)O2)cc1F |  | >2.18 µM |
| COC1=C(C)C(=O)C(C)(C)C(=O)C1(O)OC(=O)/C=C/c1ccccc1 | MTT | >200 µM |
| COc1cc2c(c(O)c1OC)-c1c(cc(OC(C)=O)c(OC)c1O)C[C@@H](C)[C@@H](C)C2 | MTT | 32.04 µg/mL |
| CCOP(=O)(N[C@@H](C)C(=O)OC)OC[C@H]1O[C@@H](n2cc(C)c(=O)[nH]c2=O)C[C@@H]1N=[N+]=[N-] |  | >100 µM |
| CCCCCCOC(=O)[C@H](C)NP(=O)(OC[C@H]1O[C@@H](n2cc(C)c(=O)[nH]c2=O)C[C@@H]1N=[N+]=[N-])OCC(Cl)(Cl)Cl |  | >100 µM |
| CC1CC(=O)Nc2ccccc2N1C(=O)c1ccccc1 | MTT / absorbance | >400 µM |
| CCc1cc(-c2ccc(C)o2)n(-c2ccc3c(c2)nc(-c2cc(F)ccc2O)n3Cc2ccc(=O)[nH]c2)n1 | MTT | >16 µM |
| O=C(O)[C@H]1O[C@@H](Oc2cc3oc(-c4ccc(O)cc4)cc(=O)c3c(O)c2O)[C@H](O)[C@@H](O)[C@@H]1O | MTT | 945 µM |
| C/C=C(/C)C(=O)O[C@@]12[C@H](O)[C@@H](C)[C@@]3(O)[C@@H](C=C(CO)C[C@]4(O)C(=O)C(C)=C[C@@H]34)[C@@H]1C2(C)C | MTT | >200 µM |
| Cc1cn([C@H]2C[C@H](N=[N+]=[N-])[C@@H](COP(=O)(N[C@@H](C)C(=O)OCc3ccccc3)Oc3ccccc3)O2)c(=O)[nH]c1=O |  | >100 µM |
| CC[C@]1(O)[C@@H](C)Cc2cc(OC)c(OC)c(OC)c2-c2c(cc(OC)c(OC)c2OC)[C@@H]1OC(=O)c1cccnc1 | MTT | >200 µg/mL |
| CCc1cc(-c2ccc(C)o2)n(-c2ccc3c(c2)nc(-c2cc(C(=O)O)ccc2O)n3Cc2ccc(OC)c(O)c2)n1 | MTT | >46 µM |
| CC1CC(=O)Nc2ccccc2N1C(=O)c1cccc(Cl)c1 | MTT / absorbance | >400 µM |
| Cc1cn([C@H]2C[C@H](N=[N+]=[N-])[C@@H](COP(=O)(N[C@@H](C)C(=O)OCc3ccccc3)OCC(Cl)(Cl)Cl)O2)c(=O)[nH]c1=O |  | >100 µM |
| COc1cc2c(c(OC)c1O)-c1c(cc3c(c1OC)OCO3)C[C@H](C)[C@H](C)[C@@H]2O | MTT | >200 µg/mL |
| O=C(O)c1cn(Cc2ccccc2)c2ccc(Cc3cccc(Cl)c3F)c(O)c2c1=O |  | 15.9 µM |
| CC(C)c1c(Cc2ccccc2)nc(SCC(=O)c2ccco2)[nH]c1=O | MTT | >543 µM |
| Cc1cn([C@H]2C[C@H](N=[N+]=[N-])[C@@H](CO)O2)c(=O)[nH]c1=O | fluorescence | >100 µM |
| CCOP(=O)(N[C@H](C(=O)OC)[C@@H](C)CC)OC[C@H]1O[C@@H](n2cc(C)c(=O)[nH]c2=O)C[C@@H]1N=[N+]=[N-] |  | >100 µM |
| Cc1c(Cc2ccccc2)nc(SCC(=O)c2ccccc2)[nH]c1=O | MTT | 222 µM |
| CC(=O)O[C@@H]1[C@@H](O)[C@H](COC(=O)/C=C/c2ccc(O)cc2)OC(Oc2ccc(C(=O)/C=C/c3ccc(O)c(O)c3)c(O)c2O)[C@H]1O |  | 100 µM |
| C=C[C@]1(C)[C@@H](O)CC2=C(CCC3C(C)(C)C(=O)CC[C@]23C)[C@@H]1O |  | >629 µM |
| C=C(C)[C@@]12OC3(C)O[C@@H]1[C@@H]1[C@H](OC(=O)c4ccccc4)C4(C)O[C@@]5([C@@H]4OC(=O)c4ccccc4)[C@@H](O)[C@@H](C)C[C@H]5[C@@]1(O)[C@H](C)[C@@H]2O3 | MTT | >200 µg/mL |
| Cc1ccc(C(=O)N2c3ccccc3NC(=O)CC2C)cc1 | MTT / absorbance | >400 µM |
| CC(C)c1c(Cc2ccccc2)nc(SCC(=O)c2ccccc2)[nH]c1=O | MTT | >528 µM |
| CCCCCCCCC(=O)O[C@@]12[C@H](OC(=O)/C=C/c3ccc(F)cc3)[C@@H](C)[C@@]3(O)[C@@H](C=C(CO)C[C@]4(O)C(=O)C(C)=C[C@@H]34)[C@@H]1C2(C)C | MTT | 34.24 µM |
| CCOP(=O)(NCCC(=O)OC)OC[C@H]1O[C@@H](n2cc(C)c(=O)[nH]c2=O)C[C@@H]1N=[N+]=[N-] |  | >100 µM |
| CCOP(=O)(N[C@@H](CC(C)C)C(=O)OC)OC[C@H]1O[C@@H](n2cc(C)c(=O)[nH]c2=O)C[C@@H]1N=[N+]=[N-] |  | >100 µM |
| COc1ccc(C(=O)CSc2nc(Cc3ccccc3)c(C)c(=O)[nH]2)cc1 | MTT | >526 µM |
| C[C@@H]1C2[C@H](O)C[C@@]34C=C[C@@](C)(CCC3[C@@]23CC[C@@H]1OC3=O)C4 |  | 111 µM |
| COc1ccc(C(=O)CSc2nc(Cc3ccccc3)c(C(C)C)c(=O)[nH]2)cc1 | MTT | >489 µM |
| Cc1cn([C@H]2C=C[C@@H](CO)O2)c(=O)[nH]c1=O |  | 400 µM |
| NC(=O)c1cc2c([nH]c3ccccc32)c(-c2ccc(CO)o2)n1 | MTT | 119 µM |
| CCc1cc(-c2ccc(C)o2)n(-c2ccc3c(c2)nc(-c2ccc(C(N)=O)cc2)n3Cc2cccnc2)n1 | MTT | 19 µM |
| CC1=CC[C@@H]([C@@H](C)[C@H]2CC[C@@]3(C)[C@@H]4[C@@H](O)C[C@H]5C(C)(C)OC(=O)C=C[C@@]56C[C@@]46CC[C@]23C)OC1=O | MTT | 47.61 µg/mL |
| COP(=O)(N[C@@H](Cc1ccccc1)C(=O)NCC(C)C)C(Cc1ccccc1)NC(=O)OCc1ccccc1 |  | 40 µM |
| CC1=C[C@H]2[C@@]3(O)[C@H](C)[C@@H](OC(=O)CCCCC4SCC5NC(=O)NC54)[C@]4(OC(=O)CCCCC5SCC6NC(=O)NC65)[C@H]([C@@H]3C=C(CO)C[C@]2(O)C1=O)C4(C)C | MTT | >200 µM |
| CCOP(=O)(NCCCCCC(=O)OC)OC[C@H]1O[C@@H](n2cc(C)c(=O)[nH]c2=O)C[C@@H]1N=[N+]=[N-] |  | >100 µM |

For reference, 5 entries again:

| smiles | read by | result |
|---|---|---|
| CCOP(=O)(N[C@H](C(=O)OC)[C@@H](C)CC)OC[C@H]1O[C@@H](n2cc(C)c(=O)[nH]c2=O)C[C@@H]1N=[N+]=[N-] |  | >100 µM |
| CCOP(=O)(N[C@@H](CC(C)C)C(=O)OC)OC[C@H]1O[C@@H](n2cc(C)c(=O)[nH]c2=O)C[C@@H]1N=[N+]=[N-] |  | >100 µM |
| CCc1cc(-c2ccc(C)o2)n(-c2ccc3c(c2)nc(-c2cc(F)ccc2O)n3Cc2ccc(=O)[nH]c2)n1 | MTT | >16 µM |
| C=C1C(=O)O[C@@H](CCCCCCCCCCCCCC(C)=O)[C@H]1C(=O)O | MTT | >200 µM |
| CC(C)(C)NC(=O)[C@@H]1C[C@@H]2CCCC[C@@H]2CN1C[C@H](O)CNC(=O)[C@@H]1N[C@@H]([C@H](NC(=O)Cc2ccccc2)C(=O)NCc2ccccc2)SC1(C)C |  | >100 µM |